Legend:
Experiment in all cases: SPR
Conditions in all cases: domain or fragment
P2B-2F6 = target: P2B-2F6
CR3022 = target: CR3022
S309 = target: S309
CB6 = target: CB6

Substance “HEK293 RBD (recombinant SARS-CoV-2 spike receptor-binding domain, Arg319–Lys537 with His Tag) (from UniProt P0DTC2 319-537)” has a Kd (P2B-2F6) of 36.1 nM, a Kd (CR3022) of 9.62 nM and a Kd (S309) of 0.00011 nM. For the same substance, the Kd (CB6) was 24 nM.

— PMC10852988
